# Measurements from patent US20240343781A1.
# Target: SARS-CoV Spike (SARS-CoV) (UniProt P59594)
# Assay: SPR
substance,measurement,value
S309,Kd,1.95 pM
